{"sequences": {"note": "Protein sequences, listed by entry. Tags and fused reporters are not part of them. Residues count along the entry.", "UniProt P01317, 25-54 limits assumed": "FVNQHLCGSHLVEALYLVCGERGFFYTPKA", "UniProt P01317, 85-105 limits assumed": "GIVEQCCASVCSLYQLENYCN"}, "source": "paper PMC8184657", "about": "(iScience, 2021)", "key": {"human insulin [1]": {"test_system": "human insulin", "assay_type": "biochemical"}, "human insulin [2]": {"test_system": "human insulin", "assay_type": "biochemical", "remark": "listed apart in the source"}, "insulin [3]": {"molecular_target": "T1, insulin (Bos taurus, UniProt P01317)", "assay_type": "biochemical"}, "insulin [4]": {"molecular_target": "T1, insulin", "assay_type": "biochemical", "remark": "listed apart in the source"}, "insulin [5]": {"molecular_target": "T1, insulin", "assay_type": "biochemical", "remark": "listed apart in the source"}, "BALB/c mice": {"test_system": "BALB/c mice", "conditions": "mouse, in vivo, sc"}}, "data": [{"substance": "human insulin", "values": [{"measurement": "average hydrodynamic radius", "setting": "human insulin [1]", "value": 1.358, "unit": "nm"}, {"measurement": "hydrodynamic radius", "setting": "human insulin [1]", "value": "531 to 3580", "unit": "nm"}, {"measurement": "elution volume (size exclusion)", "setting": "human insulin [2]", "value": 118.5, "unit": "mL"}, {"measurement": "elution (size exclusion)", "setting": "human insulin [2]; pH 2.6", "value": "broad peak was observed within the void volume"}]}, {"substance": "insulin", "values": [{"measurement": "diffusion coefficient (D)", "setting": "insulin [3]", "value": "9.4 × 10^−5 cm^2sec^−1"}, {"measurement": "molecular weight from DOSY", "setting": "insulin [3]", "value": "approximately 57.0 kDa"}, {"measurement": "hydrodynamic radius of insulin", "setting": "insulin [4]", "value": 1000, "unit": "nm"}, {"measurement": "secondary structure retention on heating (CD)", "setting": "insulin [5]", "value": "loss of α-helical conformation"}, {"measurement": "amyloidoma formation", "setting": "BALB/c mice", "value": "forms a mass of extracellular amyloid fibrils in mice"}]}]}
